Compound potency records, mixed from different reports. Data source: NIAID ChemDB in PubChem.

Common to all: tests in culture; organism: Mycobacterium tuberculosis

Percent inhibition refers to the dose given; in toxicity tests it is the harm to the cells. Lines come from different laboratories, so protocols vary. a–b is a range or a potency band. An empty or dashed field is not shown. MIC bound comes from a single tested concentration. ECn: concentration that inhibits the pathogen or its effect by n%. A number after MIC or MFC names an inhibition level or a share of isolates.

structure	read-out	setting	method	cells	changes	dose	strain or isolate	value
COc1cccc(/C=C/C(=O)c2c(O)c3ccccc3oc2=O)c1O	MIC90	-	agar	-	-	-	H37Rv	>6.25 µg/mL
CO[C@H]1/C=C/O[C@@]2(C)Oc3c(C)c(O)c4c(=O)c(c5oc6cc(N7CCN(CC(C)C)CC7)cc(=O)c6nc5c4c3=C2O)NC(=O)/C(C)=C\C=C\[C@H](C)[C@H](O)[C@@H](C)[C@@H](O)[C@@H](C)[C@H](OC(C)=O)[C@@H]1C	MIC	-	-	-	-	-	TN792	<1 µg/mL
CC(=O)c1c(C)n([O-])c2ccccc2[n+]1=O	EC50	inside macrophages	-	-	-	-	H37Rv	<2.72 µg/mL
COC(=O)C(NC(=O)C(=O)NC(C(=O)OC)C(C)(C)S)C(C)(C)S	MIC bound	-	-	-	-	-	H37Rv	>6.25 µg/mL
CC(=O)c1c(COc2ccc(Cl)cc2)n([O-])c2ccccc2[n+]1=O	inhibition	-	BACTEC	VERO	-	6.25 µg/mL	H37Rv	99%
O=c1c2ccccc2[nH]c2c([N+](=O)[O-])ccc(Oc3cccc(C(F)(F)F)c3)c12	MIC bound	-	resazurin	-	-	-	H37Rv	>6.25 µg/mL
NNC(=O)c1ccncc1	MIC	-	visual reading / absorbance	-	KatG S315T	-	-	1.6 µM
CN=c1sc2c(n1C)C(=O)c1ccccc1C2=O	MIC	-	BACTEC	-	-	-	H37Rv	1.6 µg/mL
O=C(/C=C/c1ccccc1)c1cc(-c2ccccc2)ccc1O	inhibition	-	-	-	-	12.5 µg/mL	-	68%
Cc1cccc(N=Nc2c(O)c3cccc(C)c3[nH]c2=O)c1	inhibition	-	resazurin	-	-	6.25 µg/mL	H37Rv	31%
CCc1ccc(C(=O)N/N=C(\C)[C@]2(O)Cc3c(O)c4c(c(O)c3[C@H](O[C@H]3C[C@H](N)[C@H](O)[C@H](C)O3)C2)C(=O)c2c(OC)cccc2C4=O)cc1	MIC	-	BACTEC	-	-	-	H37Rv	≥12.5 µg/mL
CC(=O)c1c(C)n([O-])c2ccc(C)cc2[n+]1=O	inhibition	-	BACTEC	VERO	-	6.25 µg/mL	H37Rv	100%
CCOC(=O)C[C@H](NCCCCCCCCCN[C@@H](CC(=O)OCC)C1O[C@@H]2OC(C)(C)O[C@@H]2[C@H]1OCc1ccccc1)C1O[C@@H]2OC(C)(C)O[C@@H]2[C@H]1OCc1ccccc1	MIC	-	-	-	-	-	H37Rv	25 µg/mL
O=C(NC(=O)Nc1ccc(Cl)cc1)NC(=O)c1ccccc1F	MIC	-	BACTEC	-	-	-	H37Rv	3.13 µg/mL
CCn1cc(C(=O)O)c(=O)c2cc(F)c(N3CCNCC3)cc21	MIC	-	-	-	-	-	H37Rv	15.6 µg/mL
CCOC(=O)Nc1cc(SC(=N)N)c([N+](=O)[O-])c(N)n1	EC50	-	-	-	-	-	H37Rv	<12.5 µg/mL
O=c1[nH]c2c([N+](=O)[O-])cccc2c(O)c1N=Nc1ccc(F)c(Cl)c1	MIC	-	resazurin	-	-	-	H37Rv	<6.25 µg/mL
CCOC(=O)Nc1cc(NCCc2ccccc2)c(N)c(N)n1	EC50	-	-	-	-	-	H37Rv	<12.5 µg/mL
O=C(NN1C(=O)CS(=O)(=O)C1c1ccc(C(F)(F)F)cc1)c1ccncc1	MIC	-	visual reading / absorbance	-	KatG S315R	-	-	50 µM
CC(=O)c1c(C)n([O-])c2cc(Cl)c(Cl)cc2[n+]1=O	MIC	-	BACTEC	VERO	-	-	H37Rv	0.39 µg/mL
CC1(C)O[C@H]2OC([C@H](CCO)NCCCN[C@@H](CCO)C3O[C@@H]4OC(C)(C)O[C@@H]4[C@H]3OCc3ccccc3)[C@H](OCc3ccccc3)[C@H]2O1	MIC	-	-	-	-	-	H37Rv	50 µg/mL
O=C1c2c(O)cc(O)cc2OC(c2ccc(O)cc2)C1c1c(O[C@@H]2O[C@H](CO)[C@@H](O)[C@H](O)[C@H]2O)cc(O)c2c(=O)cc(-c3ccc(O)cc3)oc12	inhibition	-	-	-	-	12.5 µg/mL	-	0%
NC(=O)c1cnccn1	MIC	-	-	-	-	-	Isolate 10800 monodrug-resistant	>300 µg/mL
O=C(Oc1ccc(Br)cc1C(=O)Nc1ccc(C(F)(F)F)cc1)c1cnccn1	MIC	21 d	-	-	-	-	multidrug resistant 234/2005	0.5 µM
CCOC(=O)CC(NCCCCCCCCCCCCNC(CC(=O)OCC)[C@H]1O[C@@H]2CC(C)(C)C[C@@H]2[C@H]2CC(C)(C)C[C@H]21)[C@H]1O[C@@H]2CC(C)(C)C[C@@H]2[C@H]2CC(C)(C)C[C@H]21	MIC	-	-	-	-	-	H37Rv	>25 µg/mL
COc1ccc(/C=N/Nc2nnc3c(n2)[nH]c2ccc(Br)cc23)cc1	inhibition	-	resazurin	-	-	6.25 µg/mL	H37Rv	28%
COc1ccc(N=Nc2c(O)c3ccc(Cl)cc3[nH]c2=O)cc1	MIC	-	resazurin	-	-	-	H37Rv	>6.25 µg/mL
NNC(=O)c1ccncc1	MIC	-	-	-	-	-	Isolate 2227	>4 µg/mL
O=C(Oc1ccc(Cl)cc1C(=O)Nc1ccc(C(F)(F)F)cc1)c1cnccn1	MIC	21 d	-	-	-	-	multidrug resistant 7357/1998	0.25 µM
NC(=O)c1cnccn1	MIC	-	-	-	-	-	M4809/NIACIN+	>2048 µg/mL
OC(C1=Nc2cccc3cccc(c23)N1)c1ccccc1	MIC	-	-	-	-	-	H37Rv	8 µg/mL
CO[C@H]1/C=C/O[C@@]2(C)Oc3c(C)c(O)c4c(O)c(c(/C=N/N5CCN(C6CCCC6)CC5)c(O)c4c3C2=O)NC(=O)/C(C)=C\C=C\[C@H](C)[C@H](O)[C@@H](C)[C@@H](O)[C@@H](C)[C@H](OC(C)=O)[C@@H]1C	MIC	-	-	-	-	-	13684	0.04 µg/mL
C=CCNC(=O)c1cncc(C(=O)O)c1	MIC	-	BACTEC	-	-	-	H37Rv	≥12.5 µg/mL
O=C(Oc1ccc(Cl)cc1C(=O)Nc1ccc(Br)cc1)c1cnccn1	MIC	21 d	-	-	-	-	H37Rv 331/88	2 µM
CCOC(=O)C[C@H](NCCCCCCCCCN[C@@H](CC(=O)OCC)[C@H]1O[C@@H]2CC(C)(C)C[C@@H]2[C@H]2CC(C)(C)C[C@H]21)[C@H]1O[C@@H]2CC(C)(C)C[C@@H]2[C@H]2CC(C)(C)C[C@H]21	MIC	-	-	-	-	-	H37Rv	25 µg/mL
O=C(Oc1ccc(Cl)cc1C(=O)Nc1cccc(C(F)(F)F)c1)c1cnccn1	MIC	21 d	-	-	-	-	extensively drug resistant Praha 131	2 µM
Cc1cc2oc(=O)c(C3=NN(c4ccccc4)C(c4ccc(O)cc4O)C3)c(O)c2cc1C	MIC90	-	agar	-	Isoniazid-resistant	-	INHR-MTB	>6.25 µg/mL
O=C(/C=C/c1ccccc1)c1cccc2ccccc12	EC50	-	-	-	-	-	H37Rv	>12.5 µg/mL
O=[N+]([O-])c1cn2c(n1)OC[C@@H](OCc1ccc(OC(F)(F)F)cc1)C2	MIC	-	-	-	-	-	H37Rv-14A1-3547 (PA-824-resistant)	0.8–1.6 µM
CC(=O)c1c(CN2CCN(c3ccc(Cl)cc3)CC2)n([O-])c2cc(Cl)c(Cl)cc2[n+]1=O	EC50	-	BACTEC	-	-	-	H37Rv	>6.25 µg/mL
O=c1[nH]c2ccc(Cl)cc2c(O)c1N=Nc1ccccc1[N+](=O)[O-]	inhibition	-	resazurin	-	-	6.25 µg/mL	H37Rv	64%
CC(=O)c1c(COc2ccccc2)n([O-])c2ccccc2[n+]1=O	inhibition	-	BACTEC	VERO	-	6.25 µg/mL	H37Rv	96%
CC1(C)O[C@H]2OC([C@H](CCO)NCCCCCCCCCN[C@@H](CCO)C3O[C@@H]4OC(C)(C)O[C@@H]4[C@H]3OCc3ccccc3)[C@H](OCc3ccccc3)[C@H]2O1	MIC	-	-	-	-	-	H37Rv	25 µg/mL
COc1ccc2c(c1)[n+](=O)c(C(C)=O)c(C)n2[O-]	EC99	inside macrophages	-	-	-	-	H37Rv	>12.5 µg/mL
COC(=O)C(=O)C(C(=O)C(c1ccccc1)c1ccccc1)c1nc2n(c1O)/C(=N/C(=O)Nc1ccc(Cl)cc1)N=N2	inhibition	-	resazurin	-	-	6.25 µg/mL	H37Rv	32%
O=C(Nc1cnc2c(Cl)cc(NC(=O)OCc3ccccc3)nc2n1)OCc1ccccc1	inhibition	-	-	-	-	12.5 µg/mL	H37Rv	1%
Cc1ccc(NC(=O)CNC2CCCCC2)cc1Cl	inhibition	-	BACTEC	-	-	12.5 µg/mL	H37Rv	56%
CCC1Cn2cc([N+](=O)[O-])nc2O1	MIC	-	-	-	-	-	H37Rv-5A1 (PA-824-resistant)	>100 µM
CO[C@H]1/C=C/O[C@@]2(C)Oc3c(C)c(O)c4c(O)c(c(/C=N/N5CCN(C)CC5)c(O)c4c3C2=O)NC(=O)/C(C)=C\C=C\[C@H](C)[C@H](O)[C@@H](C)[C@@H](O)[C@@H](C)[C@H](OC(C)=O)[C@@H]1C	MIC	-	-	-	-	-	-	0.04 µg/mL
CCCCCSC(=S)N(C)NC(=O)c1ccccn1	MIC	-	BACTEC	-	-	-	H37Rv	≥128 µg/mL
O=c1oc2ccccc2c(O)c1C1=NNC(c2ccc(C(F)(F)F)cc2)C1	MIC90	-	agar	-	-	-	H37Rv	4.94 µg/mL
CN[C@@H]1[C@H](O[C@H]2[C@H](O[C@H]3[C@H](O)[C@@H](O)[C@H](N=C(N)N)[C@@H](O)[C@@H]3N=C(N)N)O[C@@H](C)[C@]2(O)C=O)O[C@@H](CO)[C@H](O)[C@H]1O	MIC	-	-	-	-	-	9363 (streptomycin-S isoniazid-R)	<4 µg/mL
CCCCC/C(CC1NC(=S)NC1=O)=N\NC(=O)c1ccncc1	MIC	-	visual reading / absorbance	-	KatG *741R	-	H37Rv	6.3 µM
O=C(Oc1ccc(Cl)cc1C(=O)Nc1ccc(Cl)c(Cl)c1)c1cnccn1	MIC	21 d	-	-	-	-	extensively drug resistant Praha 131	1 µM
COc1ccn(C)c(=O)c1C#N	MIC	-	BACTEC	-	-	-	H37Rv	≥12.5 µg/mL
CCOC(=O)Nc1cc(NC(c2ccccc2)c2ccccc2)c([N+](=O)[O-])c(Cl)n1	EC50	-	-	-	-	-	H37Rv	>12.5 µg/mL
O=c1[nH]c2c(Cl)c(Cl)ccc2c(O)c1N=Nc1ccccc1	MIC	-	resazurin	-	-	-	H37Rv	<6.25 µg/mL
O=C(N/N=C/c1ccncc1)c1ccncc1	MIC	-	BACTEC	-	-	-	H37Rv	0.16 µg/mL
C=C(C)C1CC=C(C)/C(=N/NC(=O)c2cccnc2)C1	MIC	-	visual reading / absorbance	-	KatG S315R	-	H37Rv	50 µM
COc1cc(CC2C(=O)OCC2C(O)c2ccc3c(c2)OCO3)cc(OC)c1OC	MIC bound	-	BACTEC	-	-	-	H37Rv	>12.5 µg/mL
O=c1oc2ccccc2c(O)c1C1=NNC(c2ccc(O)cc2O)C1	MIC90	-	agar	-	-	-	H37Rv	>6.25 µg/mL
C/C(=C\C(=O)Nc1ccccc1)Nc1c(C)n(C)n(-c2ccccc2)c1=O	MIC bound	-	BACTEC	-	-	-	H37Rv	>12.8 µg/mL
CC(=O)NCC1CN(c2ccc(C(C)=O)cc2)C(=O)O1	MIC	-	-	-	-	-	15 isolates (INH RIF-R)	1.5–4 µg/mL
O=C1C(/C=C\c2ccc(Cl)cc2)=NNC2N1N=C1NC(=O)C3(NN12)c1ccccc1-c1ccccc13	inhibition	-	BACTEC	-	-	12.5 µg/mL	H37Rv	49%
O=C(Oc1cc(Cl)ccc1C(=O)Nc1ccc(C(F)(F)F)cc1)c1cnccn1	MIC	21 d	-	-	-	-	multidrug resistant 7357/1998	0.5 µM
O=[N+]([O-])c1ccccc1Sc1ccccc1[N+](=O)[O-]	inhibition	-	BACTEC	-	-	12.5 µg/mL	H37Rv	39%
COc1ccc2c(c1)OC(c1ccc(Cl)cc1)CC2=O	inhibition	-	-	-	-	12.5 µg/mL	H37Rv	48%
Cn1cc(NC(=O)Nc2cc(C(=O)O)n(C)c2)cc1C(=O)O	inhibition	-	resazurin	-	-	6.25 µg/mL	H37Rv	80%
CC(=O)NC[C@H]1CN(c2ccc(N3CCOCC3)c(F)c2)C(=O)O1	MIC	-	-	-	-	-	35 strains	>16 µg/mL
COc1ccc2c(c1)N(C(=O)N(CCOC(=O)Nc1ccccc1)CCOC(=O)Nc1ccccc1)c1ccccc1S2	inhibition	-	BACTEC	-	-	12.5 µg/mL	H37Rv	-4%
CCOC(=O)Nc1cc2ncc(CNc3ccc(C(=O)OCC)cc3)nc2c(N)n1	EC50	-	-	-	-	-	H37Rv	>12.5 µg/mL
COC(Cc1cc(C(O)(c2ccc(C(C)(C)C)cc2)c2cc(CC(OC)(c3cc(C(OC)(c4ccc(C(C)(C)C)cc4)c4ccc(C(C)(C)C)cc4)c(C)cc3C)c3cc(C(OC)(c4ccc(C(C)(C)C)cc4)c4ccc(C(C)(C)C)cc4)c(C)cc3C)c(C)cc2C)c(C)cc1C)(c1cc(C(OC)(c2ccc(C(C)(C)C)cc2)c2ccc(C(C)(C)C)cc2)c(C)cc1C)c1cc(C(OC)(c2ccc(C(C)(C)C)cc2)c2ccc(C(C)(C)C)cc2)c(C)cc1C	MIC bound	-	resazurin	-	-	-	H37Rv	>6.25 µg/mL
O=c1[nH]c2ccc(Cl)cc2c(O)c1N=Nc1ccc([N+](=O)[O-])cc1	inhibition	-	resazurin	-	-	6.25 µg/mL	H37Rv	91%

A second listing of 5 rows from above:

structure | read-out | setting | method | cells | changes | dose | strain or isolate | value
CCOC(=O)Nc1cc(NCCc2ccccc2)c(N)c(N)n1 | EC50 | - | - | - | - | - | H37Rv | <12.5 µg/mL
COc1ccn(C)c(=O)c1C#N | MIC | - | BACTEC | - | - | - | H37Rv | ≥12.5 µg/mL
O=c1[nH]c2ccc(Cl)cc2c(O)c1N=Nc1ccc([N+](=O)[O-])cc1 | inhibition | - | resazurin | - | - | 6.25 µg/mL | H37Rv | 91%
O=C(Nc1cnc2c(Cl)cc(NC(=O)OCc3ccccc3)nc2n1)OCc1ccccc1 | inhibition | - | - | - | - | 12.5 µg/mL | H37Rv | 1%
CC(=O)c1c(COc2ccc(Cl)cc2)n([O-])c2ccccc2[n+]1=O | inhibition | - | BACTEC | VERO | - | 6.25 µg/mL | H37Rv | 99%